Compound potency records, mixed from different reports. Data source: NIAID ChemDB in PubChem.

Common to all: host cell toxicity; cells: HEP-2; read-out: CC50

Blank or dashed fields: not listed here. CCn: concentration that lowers growth or viability of the cells by n%. Lines come from different laboratories, so protocols vary.

C/C=C1\[C@H](OC2O[C@H](CO)[C@@H](O)[C@H](O)[C@H]2O)OC=C(C(=O)O)[C@H]1CC(=O)OCC(OCC)c1ccc(O)c(O)c1 ; result: 250 µM
COc1ccc(-c2coc3cc(O)ccc3c2=O)cc1O ; result: 2.2 µg/mL
COc1cccc(C2(c3ccccc3)NC(NC(=O)c3ccc([N+](=O)[O-])cc3)C(=O)Nc3ccccc32)c1 ; result: 5 µM
CC(C)CCn1c(Cn2c(=O)n(Cc3ccc(P(=O)(O)O)cc3)c3ccccc32)nc2ccccc21 ; result: 81 µM
CCCSc1nsc(-c2ccccc2)c1C(N)=O ; result: 300 µg/mL
O=C(N[C@H]1N=C(c2ccccc2)c2ccccc2NC1=O)c1cc(F)c(F)cc1F ; result: 5.8 µM
N#Cc1c(N2CCCC2)nsc1-c1ccccc1 ; result: 7 µg/mL
COc1cc2c(cc1O)CCN1CC=C3C=C[C@H](OC)C[C@]321 ; read by: MTT ; result: 19.9 µg/mL
CCCOc1ccccc1C(=O)NC1N=C(c2ccccc2)c2ccccc2NC1=O ; result: 8.3 µM
CN(C)c1nsc(-c2ccccc2)c1C#N ; result: 15 µg/mL
C=C(C)n1c(=O)n(Cc2nc3ccccc3n2CCCC(=N)N=[N+]=[N-])c2ccccc21 ; result: >0.33 µM
COC(=O)c1c(SC)nsc1-c1ccccc1 ; result: 100 µg/mL
O=C1Nc2ccccc2C(c2ccccc2)(c2cccc(Cl)c2)NC1NC(=O)N1CCCCC1 ; result: 2 µM
C/C=C1\[C@H](OC2O[C@H](CO)[C@@H](O)[C@H](O)[C@H]2O)OC=C(C(=O)OC)[C@H]1CC(=O)OCC1O[C@H](OCCc2ccc(O)c(O)c2)[C@@H](O)[C@H](O)[C@H]1O ; result: 145.8 µM
CCCSc1nsc(-c2ccccc2)c1C#N ; result: 200 µg/mL
CO[C@H]1C=CC2=CCN3CCc4cc5c(cc4[C@]23C1)OCO5 ; read by: MTT ; result: 15.9 µg/mL
O=C(NCc1ccccc1F)NC1N=C(c2ccccc2)c2ccccc2NC1=O ; result: 2 µM
N#Cc1c(SCCCBr)nsc1-c1ccccc1 ; result: 25 µg/mL
O=C(NC1NC(c2ccccc2)(c2cccc(Cl)c2)c2ccccc2NC1=O)c1ccncc1 ; result: 10 µM
CC(C)CCn1c(Cn2c(=O)n(CC(=N)N=[N+]=[N-])c3ccccc32)nc2ccccc21 ; result: >210 µM
Cc1cccc(NC(=O)NC2N=C(c3ccccc3)c3ccccc3NC2=O)c1 ; result: 4.3 µM
C/C=C1\[C@H](OC2O[C@H](CO)[C@@H](O)[C@H](O)[C@H]2O)OC=C(C(=O)OC)[C@H]1CC(=O)OC ; result: 125 µM
O=C(NC1N=C(c2ccccc2)c2ccccc2NC1=O)c1cccc2cc[nH]c12 ; result: 8.4 µM
C=C(C)n1c(=O)n(Cc2nc3ccccc3n2CCC(=N)N=[N+]=[N-])c2ccccc21 ; result: >294 µM

Repeating the final 2 entries:

SMILES | read by | result
O=C(NC1N=C(c2ccccc2)c2ccccc2NC1=O)c1cccc2cc[nH]c12 |  | 8.4 µM
C=C(C)n1c(=O)n(Cc2nc3ccccc3n2CCC(=N)N=[N+]=[N-])c2ccccc21 |  | >294 µM